Measured values from several laboratories, pooled; numbers as filed in NIAID ChemDB.

All rows: whole-cell or culture tests; species: Mycobacterium tuberculosis

ECn is the concentration giving n% inhibition of infection, replication or growth.

compound,read-out,method,cells,strain or isolate,mutations,conditions,tested at,result
NNC(=O)c1ccncc1,MIC,,,Isolate UT3194 (katG S315T mutation),,,,19 µg/mL
CCC1CCC2(CC1)SCC(=O)N2NC(=O)Cc1csc2nc(-c3ccccc3)cn12,EC50,,VERO,H37Rv,,,,<6.25 µg/mL
CN(CC#CC(C)(C)C)c1cccc2c1CCC(=O)N2,MIC,,,H37Rv,,,,>6.25 µg/mL
COc1ccc(/C=N/NC(=O)Cc2cccs2)c(O)c1,MIC,resazurin,,H37Rv (ATCC 27294),,,,172.2 µM
O=C(N/N=C/c1ccc(O)c(S(=O)(=O)O)c1)C(=O)N/N=C/c1ccc(O)c(S(=O)(=O)O)c1,MIC bound,BACTEC,,H37Rv,,,,>12.5 µg/mL
CN(C)c1ccc(-c2nc(N3CCOCC3)[nH]c(=O)c2C#N)cc1,MIC,,,H37Ra,,,,>50 µg/mL
CC(C)(C)c1ccc(NC(=O)NNC(=O)c2ccncc2)cc1,MIC100,broth dilution,,My 331/88,,14 d,,8 µM
COc1nc2ccc(Br)cc2cc1C(c1ccccc1)C(O)(CCN1CCCCC1)c1ccc2ccccc2c1,MIC90,,,H37Rv,,,,59.56 µg/mL
Cc1ccc(NP2(Nc3ccc(C)cc3)=NP(Nc3ccc(C)cc3)(N3CC3)=NP(Nc3ccc(C)cc3)(N3CC3)=N2)cc1,MIC,,,INH-r,,,,6.4 µg/mL
Cc1c(S(=O)(=O)c2ccccc2)[n+](=O)c2ccccc2n1[O-],inhibition,,,H37Rv,,,6.25 µg/mL,100%
N#Cc1c(-c2ccc(F)cc2)nc(NCCCN2CCOCC2)[nH]c1=O,MIC,,,H37Ra,,,,>50 µg/mL
CCC1CCC(=NNC(=O)Cc2csc3nc(-c4ccc(Cl)cc4)cn23)CC1,inhibition,,,H37Rv,,,6.25 µg/mL,99%
C[C@]1(C(=O)O)CCC[C@]2(C)C3=CC(=O)CCC3=CC[C@@H]12,inhibition,BACTEC,,H37Rv,,,12.5 µg/mL,0%
O=[n+]1c(Sc2ccccc2)c(CBr)n([O-])c2cc(F)c(F)cc21,MIC,,,H37Rv,,,,>6.25 µg/mL
CO[C@H]1/C=C/O[C@@]2(C)Oc3c(C)c(O)c4c(=O)c(c5oc6cc(N7CCN(CC(C)C)CC7)cc(=O)c6nc5c4c3=C2O)NC(=O)/C(C)=C\C=C\[C@H](C)[C@H](O)[C@@H](C)[C@@H](O)[C@@H](C)[C@H](OC(C)=O)[C@@H]1C,MIC,,,14 (rifampicin-susceptible),,,,0.0039 µg/mL
Cc1cn2c(C(=O)NCc3ccc(C(F)(F)F)cc3)c(C)nc2s1,MIC,resazurin / fluorescence,,H37Rv,QcrB4 A396T,,,0.07 µM
CCCCc1ccc(NC(=O)NNC(=O)c2ccncc2)cc1,MIC100,broth dilution,,My 331/88,,21 d,,8 µM
O=C(Cc1cccs1)N/N=C/c1sccc1[N+](=O)[O-],MIC,resazurin,,H37Rv (ATCC 27294),,,,8.5 µM
COc1ccc(NN2C(N)=C(C#N)C(c3cc4ccccc4nc3Cl)C3=C2CC(C)(C)CC3=O)cc1,MIC,agar,,H37Rv,,,,44 µg/mL
CCCC(CCC)O/N=C/c1c2c(O)c3c(O)c(C)c4c(c3c1O)C(=O)[C@@](C)(O/C=C/[C@H](OC)[C@@H](C)[C@@H](OC(C)=O)[C@H](C)[C@H](O)[C@H](C)[C@@H](O)[C@@H](C)/C=C/C=C(/C)C(=O)N2)O4,MIC,,,H37Rv,,,,1 µg/mL
CCOc1cc2c(cc1F)[n+](=O)c(Sc1ccccc1)c(C)n2[O-],inhibition,,,H37Rv,,,6.25 µg/mL,0%
Cc1ccc(-c2nc(NCCN3CCOCC3)[nH]c(=O)c2C#N)cc1,MIC,,,H37Ra,,,,>50 µg/mL
CC1CCC2(CC1)SC(C)C(=O)N2NC(=O)Cc1csc2nc(-c3ccccc3)cn12,MIC,,VERO,H37Rv,,,,3.13 µg/mL
Cn1c2c(c(=O)c3c4[nH]c5c(c(=O)c4ccc31)CCCC5)CCCC2,MIC bound,BACTEC,,H37Rv,,,,>12.5 µg/mL
O=C(Cc1cccs1)N/N=C/c1ccccc1F,MIC,resazurin,,H37Rv (ATCC 27294),,,,>100 µg/mL
CC1CCC/C(=N\NC(=O)Cc2csc3nc(-c4ccccc4)cn23)C1,inhibition,,,H37Rv,,,6.25 µg/mL,46%
COc1ccc2nc(Cl)c(C3C(C#N)=C(N)N(Nc4ccc(F)cc4)C4=C3C(=O)CC(C)(C)C4)cc2c1,MIC,agar,,H37Rv,,,,22 µg/mL
CCCCCCc1ccc(NC(=O)NNC(=O)c2ccncc2)cc1,MIC100,broth dilution,,My 331/88,,14 d,,32 µM
Cc1cn2c(C(=O)NCc3ccc(N4CCOCC4)cc3)c(C)nc2s1,MIC,resazurin / fluorescence,,H37Rv,,,,0.463 µM
Cc1ccc(-c2nc(NC3CCCCC3)[nH]c(=O)c2C#N)cc1,MIC,,,H37Ra,,,,>50 µg/mL
CCN(CC)CCCN=c1cc2n(-c3ccc(Cl)c(Cl)c3)c3ccccc3nc-2cc1Nc1ccc(Cl)c(Cl)c1,MIC,,,14,,multidrug-resistant,,0.12 µg/mL
Cc1ccc2c(c1)n([O-])c(C)c(S(=O)(=O)c1ccccc1)[n+]2=O,inhibition,,,H37Rv,,,6.25 µg/mL,99%
Cc1ccc(-c2nnc(NC(=O)c3ccccc3Cl)o2)c(C)c1,EC90,agar,,H37Rv,,,,<0.2 µg/mL
O=C(NNC(=O)c1ccncc1)Nc1ccc(Br)cc1F,MIC100,broth dilution,,My 331/88,,21 d,,32 µM
COc1nc2ccc(Br)cc2cc1C(c1ccccc1)C(O)(CC[N+](C)(C)C)c1ccccc1,MIC90,,,H37Rv,,,,25.77 µg/mL
Cc1c(Sc2ccccc2)[n+](=O)c2cc(C(F)(F)F)ccc2n1[O-],MIC,,,H37Rv,,,,0.78 µg/mL
O=C1NC(CO)C(=O)NC1CO,inhibition,BACTEC,,H37Rv,,,12.5 µg/mL,32%
CC1(C)CC(=O)C2=C(C1)N(Nc1ccc(F)cc1)C(N)=C(C#N)C2c1cc2cc(Cl)ccc2nc1Cl,MIC,agar,,H37Rv,,,,65 µg/mL
Nc1nc(N)nc(-c2ccc([N+](=O)[O-])o2)n1,MIC,,,TAC-R,,,,6.3 µg/mL
Cc1cc(-c2cc3c(cc2F)c(=O)c(C(=O)O)cn3C2CC2)cc(C)n1,MBC,,,H37Rv,,,,4 µg/mL
NC(=O)/C(N=Nc1ccccc1S(=O)(=O)O)=N/Nc1ccccc1S(=O)(=O)O,inhibition,BACTEC,,H37Rv,,,12.5 µg/mL,50%
Cc1cn2c(C(=O)NCc3ccc(N4CCC(c5ccc(OC(F)(F)F)cc5)CC4)cc3)c(C)nc2s1,MIC,resazurin / fluorescence,,H37Rv,QcrB6 A317T,,,0.1 µM
Cc1ccc2c(c1)[n+](=O)c(Cl)c(C)n2[O-],MIC,,,H37Rv,,,,3.13 µg/mL
CCN(C)CCC(O)(c1cccc2ccccc12)C(c1ccccc1)c1cc2cc(Br)c(C)cc2nc1OC,MIC90,,,H37Rv,,,,9.03 µg/mL
CC1CCCC2(C1)SC(C)C(=O)N2NC(=O)Cc1csc2nc(-c3ccc(Cl)cc3)cn12,EC50,,,H37Rv,,,,<6.25 µg/mL
C=C(C)C1CCC2(CO)CCC3(C)C(CCC4C5(C)CCC(OC6CCCCO6)C(C)(C)C5CCC43C)C12,MIC bound,BACTEC,,H37Rv,,,,>12.5 µg/mL
O=C(Cc1cccs1)N/N=C/c1occc1[N+](=O)[O-],MIC,resazurin,,H37Rv (ATCC 27294),,,,9 µM
CC(C)c1ccc(NC(=O)NNC(=O)c2ccncc2)cc1,MIC100,broth dilution,,My 331/88,,14 d,,16 µM
CC1SC2(CCCCC2)N(NC(=O)Cc2csc3nc(-c4ccccc4)cn23)C1=O.O.O,MIC,,VERO,H37Rv,,,,6.25 µg/mL
O=S(=O)(O)CC(O)CN1CCN(CCO)CC1,inhibition,BACTEC,,H37Rv,,,12.8 µg/mL,11%
CCOCCO/N=C/c1c2c(O)c3c(O)c(C)c4c(c3c1O)C(=O)[C@@](C)(O/C=C/[C@H](OC)[C@@H](C)[C@@H](OC(C)=O)[C@H](C)[C@H](O)[C@H](C)[C@@H](O)[C@@H](C)/C=C/C=C(/C)C(=O)N2)O4,MIC,,,H37Rv,,,,0.2 µg/mL
CCN(CC)CCNc1ccc(C)c2sc3ccc(OC)cc3c(=O)c12,MIC bound,BACTEC,,H37Rv,,,,≤12.5 µg/mL
COCCO/N=C/c1c2c(O)c3c(O)c(C)c4c(c3c1O)C(=O)[C@@](C)(O/C=C/[C@H](OC)[C@@H](C)[C@@H](OC(C)=O)[C@H](C)[C@H](O)[C@H](C)[C@@H](O)[C@@H](C)/C=C/C=C(/C)C(=O)N2)O4,MIC,,,H37Rv,,,,0.1 µg/mL
C[N+](C)(C)CC(=O)N/N=C(\C(=O)Nc1ccc(Cl)cc1)C1C(=O)N(c2ccccc2)N=C1N,MIC bound,resazurin,,H37Rv,,,,>6.25 µg/mL
Cc1ccc(-c2nc(N3CCN(C)CC3)[nH]c(=O)c2C#N)cc1,MIC,,,H37Ra,,,,>50 µg/mL
CCC1CCC2(CC1)SC(C)C(=O)N2NC(=O)Cc1csc2nc(-c3ccccc3)cn12.O.O,EC50,,VERO,H37Rv,,,,<6.25 µg/mL
CCCCCCCCCCCC(=O)NC1CC(O[C@H]2C[C@](O)(C(=O)CO)Cc3c(O)c4c(c(O)c32)C(=O)c2c(OC)cccc2C4=O)OC(C)C1O,MIC bound,BACTEC,,H37Rv,,,,>12.5 µg/mL
NC(=O)c1cnccn1,MIC,,,Isolate 9769 monodrug-resistant,,,,>300 µg/mL
CC(C)c1cccc(C(C)C)c1NC(=O)C(=O)C1CCC2=C(Sc3ccccc3N2)C1=O,MIC bound,BACTEC,,H37Rv,,,,>12.5 µg/mL
Cc1ccc(-c2nc(NCCO)[nH]c(=O)c2C#N)cc1,MIC,,,H37Ra,,,,>50 µg/mL
CC1CCC2(CC1)SC(C)C(=O)N2NC(=O)Cc1csc2nc(-c3ccc(Cl)cc3)cn12,inhibition,,,H37Rv,,,6.25 µg/mL,89%
COc1nc2ccc(Br)cc2cc1C(c1ccccc1)C(O)(CCN(C)C)c1c(F)cccc1F,MIC90,,,H37Rv,,,,43.01 µg/mL
NC(=O)C(=CNC(=S)Nc1ccc(Cl)c(Cl)c1)C(N)=O,MIC bound,BACTEC,,H37Rv,,,,<6.25 µg/mL
Cc1ccc(NN2C(N)=C(C#N)C(c3cc4cc(Cl)ccc4nc3Cl)C3=C2CC(C)(C)CC3=O)cc1,MIC,agar,,H37Rv,,,,72 µg/mL
N#Cc1c(-c2ccc(F)cc2)nc(NCCO)[nH]c1=O,MIC,,,H37Ra,,,,>50 µg/mL
O=C1C(=O)N(c2ccccc2)C2(c3ccccc3)C(=Nc3ccccc3)OC(c3ccccc3)=C12,inhibition,BACTEC,,H37Rv,,,12.5 µg/mL,9%
CCCNc1nc(-c2ccc(F)cc2)c(C#N)c(=O)[nH]1,MIC,,,H37Ra,,,,>50 µg/mL
COc1nc2ccc(Br)cc2cc1C(c1ccccc1)C(O)(CCN(C)C)c1ccc2ccccc2c1,MIC90,,,H37Rv,,,,1.76 µg/mL
Cc1cnc(C)c(SCC(=O)c2ccc(Br)cc2)n1,inhibition,BACTEC,,H37Rv,,,12.5 µg/mL,84%
CSc1ccc2nc(Nc3nc4ccc(NC(C)=O)cc4s3)sc2c1,EC90,agar,,H37Rv,,,,<0.2 µg/mL
Nc1nnc2nc(CC(=O)c3ccccc3[N+](=O)[O-])c(CC(=O)c3ccccc3[N+](=O)[O-])nn12,inhibition,BACTEC,,H37Rv,,,12.5 µg/mL,6%
O=[n+]1c(Sc2ccccc2)c(CBr)n([O-])c2ccc(C(F)(F)F)cc21,MIC,,,H37Rv,,,,>6.25 µg/mL
COC(=O)[C@@]12Oc3ccc(-c4ccc5c(c4O)C(O)=C4C(=O)C[C@H](C)[C@@H](O)[C@]4(C(=O)OC)O5)c(O)c3C(O)=C1C(=O)C[C@H](C)[C@H]2O,inhibition,BACTEC,,H37Rv,,,12.8 µg/mL,1%
Cc1cn2c(C(=O)NCc3ccc(N(C)C)cc3)c(C)nc2s1,MIC,luminescence,,H37Rv,,,,21.5 µM
C=CC12c3c4cc(OC)cc3OC1C(O)CCC2CC4,MIC bound,BACTEC,,H37Rv,,,,>12.5 µg/mL
CCCCNc1nc(-c2ccc(N(C)C)cc2)c(C#N)c(=O)[nH]1,MIC,,,H37Ra,,,,>50 µg/mL
Cc1cc2nc3ccc(N=Nc4ccc(N(C)C)cc4)cc3n(-c3ccccc3)c-2cc1=N,MIC,,,INH-r,,,,0.2 µg/mL
CO[C@H]1/C=C/O[C@@]2(C)Oc3c(C)c(O)c4c(O)c(c(/C=N/OCc5ccc(Br)cc5)c(O)c4c3C2=O)NC(=O)/C(C)=C\C=C\[C@H](C)[C@H](O)[C@@H](C)[C@@H](O)[C@@H](C)[C@H](OC(C)=O)[C@@H]1C,MIC,,,H37Rv,,,,0.5 µg/mL

Inhibition is in % at the dose shown (toxicity tests: loss of growth or viability). Blank or dashed fields: not listed here. Lines come from different laboratories, so protocols vary. MIC bound: limit read from a one-dose screen. A number after MIC or MFC names an inhibition level or a share of isolates.